Experimental data as given in US9096835B2, “DNA polymerase” (Medical Research Council, priority 2003, dated 2015).

System: HIV pol (38% GC), Taq (68% GC) PCR targets
Experiment: Mutation spectrum in PCR by sequencing of cloned products
Assay type: biochemical
Conditions: for total substitutions observed in PCR fragments: PCR fragments amplified with the polymerase, FIG. 22B; for Mutation spectrum in PCR: Transitions AT->GC (number of mutations) / Mutation spectrum in PCR: Transitions GC->AT (number of mutations) / Mutation spectrum in PCR: Transversions AT->CG (number of mutations) / Mutation spectrum in PCR: Transversions AT->TA (number of mutations) / Mutation spectrum in PCR: Transversions GC->CG (number of mutations) / Mutation spectrum in PCR: Transversions GC->TA (number of mutations) / Mutation spectrum in PCR: Deletions (number): sequencing of 40 clones (800 bp) each; for Mutation spectrum in PCR: Deletions (number): −1 deletions

For “wtTaq: Thermus aquaticus (Taq) wild type DNA polymerase [reference compound]”, the “total substitutions observed in PCR fragments” value was 48, the “Mutation spectrum in PCR: Transitions AT->GC (number of mutations)” value was 25 and the “Mutation spectrum in PCR: Transitions GC->AT (number of mutations)” value was 9. For the same molecule, the “Mutation spectrum in PCR: Transversions AT->CG (number of mutations)” value was 2, the “Mutation spectrum in PCR: Transversions AT->TA (number of mutations)” value was 8 and the “Mutation spectrum in PCR: Transversions GC->CG (number of mutations)” value was 1. For the same molecule, the “Mutation spectrum in PCR: Transversions GC->TA (number of mutations)” value was 3 and the “Mutation spectrum in PCR: Deletions (number)” value was 3.

B1: M1: Taq mutant G84A, D144G, K314R, E520G, F598L, A608V, E742G; SEQ ID NO: 1 (protein)
chain: MRGMLPLFEPKGRVLLVDGHHLAYRTFHALKGLTTSRGEPVQAVYGFAKSLLKALKEDGDAVIVVFDAKAPSFRHEAYGGYKAARAPTPEDFPRQLALIKELVDLLGLARLEVPGYEADDVLASLAKKAEKEGYEVRILTADKGLYQLLSDRIHVLHPEGYLITPAWLWEKYGLRPDQWADYRALTGDESDNLPGVKGIGEKTARKLLEEWGSLEALLKNLDRLKPAIREKILAHMDDLKLSWDLAKVRTDLPLEVDFAKRREPDRERLRAFLERLEFGSLLHEFGLLESPKALEEAPWPPPEGAFVGFVLSRREPMWADLLALAAAAGGRVHRAPEPYKALRDLKEARGLLAKDLSVLALREGLGLPPGDDPMLLAYLLDPSNTTPEGVARRYGGEWTEEAGERAALSERLFANLWGRLEGEERLLWLYREVERPLSAVLAHMEATGVRLDVAYLRALSLEVAEEIARLEAEVFRLAGHPFNLNSRDQLERVLFDELGLPAIGKTEKTGKRSTSAAVLGALREAHPIVEKILQYRELTKLKSTYIDPLPDLIHPRTGRLHTRFNQTATATGRLSSSDPNLQNIPVRTPLGQRIRRAFIAEEGWLLVVLDYSQIELRVLAHLSGDENLIRVFQEGRDIHTETASWMFGVPREAVDPLMRRAAKTINFGVLYGMSAHRLSQELAIPYEEAQAFIERYFQSFPKVRAWIEKTLEEGRRRGYVETLFGRRRYVPDLEARVKSVRGAAERMAFNMPVQGTAADLMKLAMVKLFPRLEEMGARMLLQVHDELVLEAPKERAEAVARLAKEVMEGVYPLAVPLEVEVGIGEDWLSAKE
modifications: Mutant Thermus aquaticus DNA polymerase
With B1 the “total substitutions observed in PCR fragments” value was 74, the “Mutation spectrum in PCR: Transitions AT->GC (number of mutations)” value was 25 and the “Mutation spectrum in PCR: Transitions GC->AT (number of mutations)” value was 16. The “Mutation spectrum in PCR: Transversions AT->CG (number of mutations)” value was 4, the “Mutation spectrum in PCR: Transversions AT->TA (number of mutations)” value was 15 and the “Mutation spectrum in PCR: Transversions GC->CG (number of mutations)” value was 10. The “Mutation spectrum in PCR: Transversions GC->TA (number of mutations)” value was 5 and the “Mutation spectrum in PCR: Deletions (number)” value was 1.
